US5567805A, “The cellular receptor for the CS3 peptide of human immunodeficiency virus” (priority 1994, dated 1996)

Key:
[1] = tested on: CS3 receptor; assay: Flow cytometric binding of FITC labelled C-CS3-HSA to RH9 cells; design: species or system human; conditions: 100 fold excess
Protocol: Cysteine-CS3 (C-CS3, which has the sequence CLQARILAVERYLKDQQL) was coupled to human serum albumin as described (Ciancialo et al., 1988, Immunology Letters 19:7). A molar ratio of 10 CS3/HSA was achieved as determined by addition of trace amounts of ^125 I-CS3 to the coupling reaction. C-CS3-HSA was labelled with FITC (Harlow, 1988, in "Antibodies: A Laboratory Manual," Cold Spring Harbor Laboratories, pp. 354-355) and its binding to RH9 cells was determined with the use of Coulter Epics 753 Flow Cytometer. RH9 cells were washed with PBS 1% BSA and incubated with C-CS3-HSA or controls for 30 min. at 4° C. in a final volume of 100 μl. Cells were washed and resuspended at 10^6 cells/mi.

[2] = tested on: HIV; assay: HIV infection of RH9 cells measured by p24 production; format: cell-based, human immunodeficiency virus; conditions: CS3-HSA 10 μg/ml, HSA 20 μg/ml, antibody 6.7 μg/ml; 4 hours exposure, 18 days
Protocol: RH9 cells at a concentration of 2×10^5 cells/ml were exposed to either (i) medium; (ii) HIV virus alone; (iii) HIV virus in the presence of HSA at 20 μg/ml; (iv) HIV virus and CS3-HSA at 10 μg/ml; (v) HIV virus and 6.7 μg/ml antibody specific for CS3; or (vi) HIV virus and 6.7 μg/ml CS3 depleted anti-HIV IgG; for 4 hours, then washed three times in a 100× volume of HBSS. The cells were then incubated in RPMI containing 10% serum and 20 mM HEPES, at a concentration of about 5×10^5 cells ml, for 18 days (fresh medium was added in order to keep the cell concentration relatively constant).
HIV infection was measured in terms of expression of p24 protein, as quantitated by a standard assay (e.g. the F.D.A. approved Abbott Laboratory Assay).

Which results are given for human serum albumin [HSA]?
decrease in the binding of C-CS3-HSA-FITC [1]: failed to effect a decrease in the binding; inhibition of HIV infection of RH9 cells (p24 production) [2]: inhibition was not observed
